Measured values as given in publication PMC3185582 (Viruses, 2010).

Tested on: HEK-293, L929, MRC5, and SIRC cells
Conditions: 50 uM, 72 hour; unpublished work [21]

Structure (SMILES): O=C(NN1C(=O)[C@@H]2[C@@H]3C=C[C@@H]([C@H]4C[C@@H]34)[C@@H]2C1=O)c1ccc(C(F)(F)F)cc1 [ST-246, Tecovirimat]
- growth rate reduced relative to untreated controls: 30–40%
